# Measurements reported in article PMC10740580, “Benzothiazole-Phthalimide Hybrids as Anti-Breast Cancer and Antimicrobial Agents” (Antibiotics, 2023).
# System: MCF-10A cells
# Assay: MTT cell viability assay, nonmalignant MCF-10A
# Assay type: cell-based, human
# Description: The anticancer activity of the studied compounds (3a–h) was explored with regards to two human breast cancer cell lines, namely the estrogen receptor positive (ER+) MCF-7 cells and the triple negative MDA-MB-231 cells (ER-, PR-, and HER-2/Neu-). Cells were continuously exposed to the test substances for 72 h, after which their viability was assessed by means of the MTT assay. Table 2 lists the determined IC50 values for the investigated substances and the reference drug, thalidomide. […] Additionally, the same test for all the compounds has been performed on nonmalignant breast epithelial cells (MCF-10A) to ascertain their potential cytotoxicity.
# The four cell lines used in this work (MCF-7, MDA-MB-231, MCF-10A, and 3T3-L1) were obtained from the American Type Culture Collection (ATCC, Manassas, VA, USA). […]
# Cell viability was evaluated by means of the 3-(4,5-dimethylthiazol-2-y1)-2,5-diphenyltetra zolium bromide (MTT, Sigma-Aldrich, Milan, Italy) assay. […] Cells were lysed with DMSO after 2 h of incubation at 37 °C, and optical density at 570 nm was then determined with a microplate reader. Using GraphPad Prism 9 software (GraphPad Inc., San Diego, CA, USA), the mean absorbance for each sample was expressed as a percentage over the control and plotted vs. drug concentrations to establish the IC50 values. […]
smiles,measurement,setting,value
"O=C1c2ccccc2C(=O)N1c1nc2ccc(Oc3ccccc3)cc2s1 [3h, 2-[6-Phenoxy-1,3-benzothiazol-2-yl]-1H-isoindole-1,3(2H)-dione]",IC50 on MCF-10A relative to MCF-7 (fold higher),selectivity nonmalignant vs MCF-7 cancer cells,~7 fold
same,IC50 on MCF-10A relative to MDA-MB-231 (fold higher),selectivity nonmalignant vs MDA-MB-231 cancer cells,about 13 fold
